# PubChem BioAssay AID624099 | ICCB-Longwood | 2012
# Aim: 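Host factors E2 relies on to silence an HPV18 LCR reporter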 (primary screen)
# Cell system: human C33A cervical carcinoma cells (HPV-negative) stably expressing BPV1 E2 and an HPV18 LCR luciferase reporter
# Reagent: siRNA pool against human genes, 40 nM
# Duration: 72 h
# Read-out: 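Per-well luciferase luminescence, z-scored on each plate against the plate mean and SD with control wells left out, then averaged across three replicate plates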
# Reading the numbers: mean z-score and z-score: higher = stronger reporter signal, weaker E2 silencing
# Hit rule: 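Hit if mean z-score reaches 2 and two or more of three replicate z-scores also reach 2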
# Here is a random part of about 21,000 reagents tested. Over the whole deposit, 497 (2.4%) are marked active. 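Higher z means weaker E2 silencing; only reporter increases were scored, and knock-downs that hurt cell survival may mask genuine repressor factors.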 A number with no mark means an inactive call. The numbers tell different reagents against one gene apart. Reagent sequences are not shown.
target,reagent no.,mean z-score,"z-score, replicate A","z-score, replicate B","z-score, replicate C"
FBXO28 (F-box protein 28),1,0.21,0.04,1.08,-0.5
PRAMEF13 (PRAME family member 13),1,1.33,1.65,0.95,1.37
"MUC7 (mucin 7, secreted)",1,0.1,0.21,0.02,0.07
SLC9A6,1,0.61,0.47,0.61,0.74
GPR142 (G protein-coupled receptor 142),1,-0.45,-0.3,-0.51,-0.54
GDPGP1 (GDP-D-glucose phosphorylase 1),1,0.83,0.86,0.52,1.11
RABGEF1 (RAB guanine nucleotide exchange factor 1),1,-0.88,-1.09,-0.94,-0.62
ZNF841 (zinc finger protein 841),1,0.32,0.36,0.35,0.24
ZNF805 (zinc finger protein 805),1,-1.05,-1,-1.53,-0.62
BTF3L4 (basic transcription factor 3 like 4),1,-0.59,-0.65,-0.63,-0.5
GATA5 (GATA binding protein 5),1,-1.78,-1.8,-1.7,-1.85
SLC10A7,1,2.05 (active),1.67,2.46,2.03
TSBP1-AS1 (TSBP1 and BTNL2 antisense RNA 1),1,-0.09,-0.18,-0.02,-0.07
SCAMP4,1,-0.04,0.07,0.09,-0.3
HOXA10 (homeobox A10),1,-1.01,-1.35,-0.92,-0.77
SEC14L5 (SEC14 like lipid binding 5),1,-0.96,-0.88,-1.16,-0.84
CHD1 (chromodomain helicase DNA binding protein 1),1,1.96,1.64,2.19,2.05
DNM1P40 (dynamin 1 pseudogene 40),1,-0.21,-0.09,-0.29,-0.24
LECT2 (leukocyte cell derived chemotaxin 2),1,-0.18,0.03,-0.06,-0.53
DNAJC24 (DnaJ heat shock protein family (Hsp40) member C24),1,0.66,0.97,0.5,0.5
ELMOD3 (ELMO domain containing 3),1,-1.04,-0.81,-1.3,-1.02
ALB (albumin),1,0.83,1.42,0.56,0.51
SLC12A7,1,-0.31,-0.17,-0.21,-0.55
UNKL (unk like zinc finger),1,-1.28,-1.27,-1.38,-1.2
UNKL (unk like zinc finger),2,0.4,0.35,0.18,0.68
RBM22 (RNA binding motif protein 22),1,3.14 (active),2.53,3.54,3.35
TLCD3B (TLC domain containing 3B),1,0.74,0.58,0.74,0.91
ARHGAP26 (Rho GTPase activating protein 26),1,-0.3,-0.27,-0.32,-0.31
LINC00974 (long independently transcribed non-coding RNA 974),1,-0.59,0.42,-1.64,-0.55
CLP1 (cleavage factor polyribonucleotide kinase subunit 1),1,0.14,0.49,0.11,-0.19
NAPEPLD (N-acyl phosphatidylethanolamine phospholipase D),1,1.15,1.49,0.94,1.02
LINC00626 (long independently transcribed non-coding RNA 626),1,0.68,0.47,0.87,0.72
"POLG2 (DNA polymerase gamma 2, accessory subunit)",1,-0.44,-0.59,-0.3,-0.42
SNRPE (small nuclear ribonucleoprotein polypeptide E),1,-1.03,-1.23,-0.95,-0.89
CD300LB (CD300 molecule like family member b),1,-0.2,-0.1,-0.18,-0.31
VIPR2 (vasoactive intestinal peptide receptor 2),1,-0.17,-0.09,-0.42,-0.01
MYO19 (myosin XIX),1,2.12 (active),1.96,2.24,2.16
ZNF695 (zinc finger protein 695),1,-0.57,-0.96,-0.45,-0.3
AJM1 (apical junction component 1 homolog),1,-0.6,-0.68,-0.31,-0.81
CD274 (CD274 molecule),1,0.89,1.17,0.71,0.78
LZTS1 (leucine zipper tumor suppressor 1),1,-0.65,-0.61,-0.65,-0.68
ENTHD1 (ENTH domain containing 1),1,0.05,-0.18,0.22,0.09
CAMK1D (calcium/calmodulin dependent protein kinase ID),1,0.67,0.21,0.87,0.94
LOC389637 (retired record),1,-0.5,-0.37,-0.48,-0.65
SHOX2 (SHOX homeobox 2),1,-1.28,-1.47,-1.24,-1.12
"SSX8P (SSX family member 8, pseudogene)",1,-0.61,-0.35,-0.53,-0.95
NCAPH (non-SMC condensin I complex subunit H),1,0.74,0.58,0.78,0.86
EDN3 (endothelin 3),1,-1.01,-1.11,-1.04,-0.89
ZNF485 (zinc finger protein 485),1,0.41,0.31,0.2,0.73
ZNF222 (zinc finger protein 222),1,1.49,1.41,1.72,1.33
C2orf66 (chromosome 2 open reading frame 66),1,-2.72,-2.19,-2.81,-3.18
H2BP3 (H2B histone pseudogene 3),1,2 (active),1.49,2.34,2.18
DEPDC7 (DEP domain containing 7),1,0.01,-0.18,-0.26,0.45
SRL (sarcalumenin),1,-0.08,-0.44,-0.02,0.23
"ZNF833P (zinc finger protein 833, pseudogene)",1,-0.06,-0.02,-0.03,-0.12
CORO2A (coronin 2A),1,-0.19,-0.76,0.09,0.11
TSSC4 (tumor suppressing subtransferable candidate 4),1,-0.19,0.39,-0.31,-0.64

Active calls, among the entries above:
target,reagent no.,mean z-score,"z-score, replicate A","z-score, replicate B","z-score, replicate C"
SLC10A7,1,2.05 (active),1.67,2.46,2.03
RBM22 (RNA binding motif protein 22),1,3.14 (active),2.53,3.54,3.35
MYO19 (myosin XIX),1,2.12 (active),1.96,2.24,2.16
H2BP3 (H2B histone pseudogene 3),1,2 (active),1.49,2.34,2.18
